Record: PubChem BioAssay AID504761 (Drosophila RNAi Screening Center, 2011)
Screen: 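Insect host genes that dengue virus relies on to spread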 (primary screen). System: D.Mel-2 cells from Drosophila. Knock-down reagent: long dsRNA against Drosophila genes. Conditions: infection with dengue virus type 2; dose and infection time not stated. Read-out: 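Cells stained for dengue envelope protein and imaged; percent of infected cells per well on duplicate plates, ranked by infection, with stained nuclei counted for cell number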. Direction: infection score: higher = more virus-infected cells; cell count: higher = more cells in the well. Call rule: 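Very low infection ranking in both replicate wells (chance probability at most 0.065), then a retest showing infection dropped 1.5-fold or more at p below 0.05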. Meaning of the calls: active = confirmed: knock-down lowers infection; inactive = not picked or not confirmed.
The screen tested about 22,000 reagents; below is an unselected part of those with a known target gene and a result. Of all reagents, 116 (0.52%) got an active call. 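Calls depend on retest data that are not deposited; infection was ranked per plate without normalising between plates; the unit of the infection score is not given.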 The raw values are shown without normalisation. Not stated in the record: the amount of reagent, the time to read-out.

target gene | dsRNA | infection score, replicate 1 | infection score, replicate 2 | cell count, replicate 1 | cell count, replicate 2 | activity call
Surf6 | DRSC15588 | 2.59 | 3.42 | 6248 | 7046 | inactive
Surf6 | DRSC29437 | 7.06 | 9.93 | 978 | 5439 | inactive
fwd | DRSC08580 | 11.8 | 3.86 | 6100 | 6624 | inactive
fwd | DRSC26680 | 1.89 | 0.74 | 5875 | 5654 | inactive
Dhit | DRSC07411 | 13.6 | 10.9 | 5357 | 5423 | inactive
Dhit | DRSC25629 | 5.47 | 7.49 | 6529 | 5650 | inactive
fan | DRSC10930 | 3.97 | 5.1 | 5888 | 5996 | inactive
ftz-f1 | DRSC25015 | 5.2 | 1.61 | 5978 | 6218 | inactive
ebo | DRSC18787 | 1.91 | 10.2 | 6965 | 7189 | inactive
ebo | DRSC28174 | 25.3 | 12.5 | 5916 | 6501 | inactive
Fbp1 | DRSC11166 | 0.78 | 0.95 | 6022 | 6025 | inactive
Fbp1 | DRSC26593 | 0.58 | 5.02 | 6549 | 5752 | inactive
CG42240 | DRSC18097 | 0.95 | 1.97 | 6664 | 6388 | inactive
CG42240 | DRSC30017 | 27.9 | 5.18 | 5745 | 5478 | inactive
CG42268 | DRSC10171 | 1.47 | 2.13 | 5838 | 5963 | inactive
CG42268 | DRSC10702 | 1.15 | 1.49 | 6546 | 6260 | inactive
CG42268 | DRSC21797 | 4.82 | 4.63 | 6865 | 7103 | inactive
CG42268 | DRSC25299 | 6.38 | 7.09 | 6709 | 5894 | inactive
CG42268 | DRSC29387 | 10.7 | 5.86 | 3464 | 5085 | inactive
ktub | DRSC04551 | 6.53 | 17.4 | 2955 | 6435 | inactive
CG32687 | DRSC18210 | 3.66 | 6.44 | 6003 | 6212 | inactive
CG32687 | DRSC18237 | 1.47 | 7.15 | 6197 | 5717 | inactive
bdl | DRSC00271 | 7.54 | 7.95 | 6303 | 6340 | inactive
Rab5 | DRSC00777 | 1.15 | 0.6 | 1568 | 1987 | inactive
Rab5 | DRSC23710 | 3.28 | 0.93 | 4202 | 5035 | inactive
VhaM9.7-c | DRSC08204 | 14 | 5.28 | 6155 | 6254 | inactive
VhaM9.7-c | DRSC30083 | 5.82 | 11.8 | 6052 | 5825 | inactive
CG31326 | DRSC16532 | 1.31 | 1.52 | 6616 | 6431 | inactive
CG31326 | DRSC26494 | 1.56 | 3.39 | 6481 | 5870 | inactive
CG10948 | DRSC09806 | 0.29 | 0.41 | 6104 | 6364 | active
vg | DRSC07715 | 2.33 | 1.34 | 6837 | 6797 | inactive
vg | DRSC22669 | 11.2 | 27 | 7123 | 5522 | inactive
vg | DRSC29857 | 19.6 | 6.88 | 6337 | 6483 | inactive
Drat | DRSC06600 | 18.7 | 33.6 | 6594 | 4719 | inactive
CG2972 | DRSC18250 | 5.66 | 4.75 | 6294 | 6216 | inactive
CG2972 | DRSC30013 | 17.3 | 10.2 | 5859 | 5435 | inactive
Ir56c | DRSC06544 | 2.66 | 12 | 6923 | 6218 | inactive
Ir56c | DRSC26227 | 0.55 | 0.94 | 6188 | 5834 | active

Targets above whose target name begins with F or f:
target gene | dsRNA | infection score, replicate 1 | infection score, replicate 2 | cell count, replicate 1 | cell count, replicate 2 | activity call
fwd | DRSC08580 | 11.8 | 3.86 | 6100 | 6624 | inactive
fwd | DRSC26680 | 1.89 | 0.74 | 5875 | 5654 | inactive
fan | DRSC10930 | 3.97 | 5.1 | 5888 | 5996 | inactive
ftz-f1 | DRSC25015 | 5.2 | 1.61 | 5978 | 6218 | inactive
Fbp1 | DRSC11166 | 0.78 | 0.95 | 6022 | 6025 | inactive
Fbp1 | DRSC26593 | 0.58 | 5.02 | 6549 | 5752 | inactive

Next reagents follow:
target gene | dsRNA | infection score, replicate 1 | infection score, replicate 2 | cell count, replicate 1 | cell count, replicate 2 | activity call
ppk15 | DRSC14733 | 14.5 | – | 3383 | 325 | inactive
ppk15 | DRSC27947 | 11.4 | 12.1 | 6200 | 6353 | inactive
CG31441 | DRSC15723 | 2.41 | 4.33 | 6399 | 6373 | inactive
CG31441 | DRSC27463 | 13.4 | 16.9 | 5899 | 4350 | inactive
Bem46 | DRSC00275 | 9.72 | 10.6 | 6348 | 6535 | inactive
qless | DRSC15103 | 7.62 | 3 | 6546 | 6669 | inactive
qless | DRSC15507 | 9.48 | 5.58 | 6174 | 6089 | inactive
E(spl)m8-HLH | DRSC16654 | 1.16 | 4.12 | 6029 | 6575 | inactive
E(spl)m8-HLH | DRSC28065 | 16.3 | 5.67 | 5129 | 6910 | inactive
haf | DRSC00381 | 1.87 | 3.24 | 6640 | 5712 | inactive
Mal-A8 | DRSC07234 | 5.8 | 12.6 | 5744 | 6576 | inactive
CG12084 | DRSC08247 | 11.4 | 9.83 | 6039 | 5016 | inactive
CG12084 | DRSC26814 | 6.66 | 6.46 | 6214 | 6794 | inactive
GNBP-like3 | DRSC06385 | 3.46 | 4.91 | 6158 | 6046 | inactive
lqfR | DRSC14703 | 1.21 | 5.7 | 6436 | 6530 | inactive
lqfR | DRSC14704 | 9.57 | 6.14 | 6278 | 6110 | inactive
lqfR | DRSC25247 | 8.83 | 6.6 | 6492 | 6378 | inactive
crq | DRSC00810 | 24.5 | 1.63 | 5006 | 7035 | inactive
ND-51L2 | DRSC07080 | 30.3 | 11.8 | 4694 | 6355 | inactive
Unr | DRSC10761 | 1.08 | 1.43 | 6846 | 7078 | active
Unr | DRSC26920 | 5.97 | 7.11 | 6395 | 6542 | inactive
CG2233 | DRSC18217 | 10.5 | 5.14 | 6829 | 6868 | inactive
Epp | DRSC14607 | 4.06 | 4.3 | 6251 | 6714 | inactive
Epp | DRSC29249 | 9.78 | 28.7 | 4122 | 5317 | inactive
oaf | DRSC00831 | 2.98 | 1.48 | 6269 | 6937 | inactive
CG17917 | DRSC12570 | 2.94 | 3.76 | 6915 | 6856 | inactive
RpS25 | DRSC16837 | 19 | 21.7 | 4870 | 5076 | inactive
RpS25 | DRSC29990 | 43.8 | 26.3 | 3808 | 5184 | inactive
PMCA | DRSC17114 | 1.87 | 1.43 | 5892 | 6414 | inactive
PMCA | DRSC17154 | 2.7 | 2.76 | 6002 | 6547 | inactive
CG31275 | DRSC16919 | 3.31 | 5.15 | 6618 | 6655 | inactive
ORY | DRSC22883 | 2.06 | 1.16 | 5779 | 6579 | inactive
nAChRbeta2 | DRSC17010 | 12.1 | 3.63 | 6137 | 6635 | inactive
Obp22a | DRSC00088 | 5.59 | 5.69 | 6080 | 5727 | inactive
mthl14 | DRSC07865 | 1.95 | 3.02 | 6117 | 5866 | inactive
Pgant7 | DRSC19991 | 11.8 | 3.78 | 6136 | 6395 | inactive
